Pooled drug test results. Numbers come from NIAID ChemDB, via PubChem.

Common to all: tests in culture; organism: Candida albicans

An empty or dashed field is not shown. Neighbouring rows are from separate reports. A number after MIC or MFC names an inhibition level or a share of isolates. a–b is a range or a potency band.

structure	method	strain or isolate	read-out	result
CCCCn1cc[n+](COCCCCCCOC[n+]2ccn(CCCC)c2)c1	agar diffusion	ATCC 90028	MIC100	345 µM
Cc1cc(=O)c(OCc2ccccc2)cn1CCC1=NCCS1			MIC	100 µg/mL
Cc1cc(COc2ccc(Oc3ccc(Cl)cc3)cc2)n(O)c(=O)c1		TIMM0144	MIC	4 µg/mL
O=c1ccn(CCC2=NCCS2)cc1O			MIC	50 µg/mL
CCCCCn1cc[n+](COCCCOC[n+]2ccn(CCCCC)c2)c1	agar diffusion	ATCC 90028	MIC100	1379 µM
C[C@@H](n1cnc2cc(Cl)ccc2c1=O)[C@](O)(Cn1cncn1)c1ccc(Cl)cc1Cl		60 strains	MIC	≤0.03 µg/mL
C=C1C(=O)ON(C)C1c1ccc(C)cc1			MIC	37.5 µg/mL
c1coc(-c2n[nH]c3c2CCCC3)c1		264/624	MBC	250 µg/mL
CCOC(=O)/C=C/c1cc(C(=O)c2ccc(Cl)cc2)cn1C			MIC	>500 µg/mL
Fc1ccccc1CN(Cc1ccc(-c2ccccc2)cc1)n1ccnc1			MIC	200 µM
Cc1ccc(-c2n[nH]c3c2CCCC3)cc1		264/624	MIC	3.9 µg/mL
O=c1ccn(CC2=NCCS2)cc1OCc1ccccc1			MIC	75 µg/mL
Clc1ccc(CN(Cc2ccc(-c3ccccc3)cc2)n2ccnc2)c(Cl)c1			MIC	2.5 µM
CC(C)N=C(N)c1ccc2nc(-c3ccc4c(c3)Cc3cc(-c5nc6ccc(C(N)=NC(C)C)cc6[nH]5)ccc3-4)[nH]c2c1		21 strains	Geometric mean MFC	2.28 µg/mL
Cc1csc(NC(=O)CSc2nnc(C(C)Oc3ccccc3)n2-c2ccccc2)n1		NRRL Y-27077	MIC	16 µg/mL
C[C@@H](n1cnc2cc(Cl)ccc2c1=O)[C@](O)(Cn1cncn1)c1ccc(F)cc1F		406 strains	MIC	≤0.03 µg/mL
Nc1ccc2ccccc2c1S(=O)(=O)O	agar diffusion		MIC	200 µg/mL
Cc1ccc2nc(Cl)c(C3SC(=Cc4ccccc4O)C(=O)N3n3c(-c4ccc(Cl)cc4)nc4ccccc4c3=O)cc2c1	broth dilution / visual reading		MIC99	500 µg/mL
C[C@@H](n1cnc2cccc(Cl)c2c1=O)[C@](O)(Cn1cncn1)c1ccc(F)cc1F		60 strains	MIC	0.15 µg/mL
CC[C@@H](C)n1ncn(-c2ccc(N3CCN(c4ccc(OC[C@H]5CO[C@](Cn6cncn6)(c6ccc(F)cc6F)C5)cc4)CC3)cc2)c1=O		C-43	MIC	0.0313 µg/mL
Cc1cc(Br)c2ncn([C@H](C)[C@](O)(Cn3cncn3)c3ccc(F)cc3F)c(=O)c2c1		406 strains	MIC	0.07 µg/mL
CCOc1ccc(N2C(=O)C(c3ccccc3)(c3ccccc3)C2c2cccs2)cc1			MIC	100 µg/mL
O=C(CCn1ccnc1)c1cccc(O)c1	broth dilution	RTCC 1003	MIC	>64 µg/mL
Clc1ccc(CN(Cc2ccc(-c3ccccc3)cc2)n2ccnc2)cc1			MIC	33 µM
C=CCCN1C[C@H](OCC23C[C@@H]4[C@H](C)CC[C@H]4C4(C=O)CC2C=C(C(C)C)C34C(=O)O)O[C@H](C)[C@@H](OC)C1		SANK51486	MIC	0.5 µg/mL
Nc1ccc2c(S(=O)(=O)O)cccc2c1S(=O)(=O)O	agar diffusion		MIC	100 µg/mL
CCOC(=O)Cc1csc(NC(=O)CSc2nnc(C(C)Oc3ccccc3)n2-c2ccccc2)n1		Clinical isolates	MIC	>16 µg/mL
OC(Cn1cncn1)(Cn1cncn1)c1ccc(F)cc1F	broth dilution	clinical isolates susceptible	MIC	0.032–1 µg/mL
C[C@@H](n1cnc2cc(N3CCN(C)CC3)ccc2c1=O)[C@](O)(Cn1cncn1)c1ccc(F)cc1F		406 strains	MIC	5 µg/mL
Nc1ccc2cc(S(=O)(=O)O)ccc2c1	agar diffusion		MIC	200 µg/mL
C[C@H]1[C@H](O)[C@@H](C)/C=C/C=C/C=C/C=C/C=C/C=C/C=C/[C@H](O[C@@H]2O[C@H](C)[C@@H](O)[C@H](N)[C@@H]2O)C[C@@H]2O[C@](O)(C[C@@H](O)C[C@@H](O)CC[C@H](O)[C@@H](O)C[C@@H](O)CC(=O)O[C@H]1C)C[C@H](O)[C@H]2C(=O)O	broth dilution / absorbance	ATCC 90028	MIC99	0.78 µM
CCCCCCCCC[C@@H]1CC(=O)NCC(=O)N[C@@H](CCCCNC(C)=O)C(=O)N[C@@H](C(C)C)C(=O)N1		ATCC 24433	MIC	>16 µg/mL
Cc1c(O)c(=O)ccn1CCC1=NCCS1			MIC	50 µg/mL
Cc1ccc2nc(Cl)c(C3SC(=Cc4cccc(Cl)c4)C(=O)N3n3c(-c4ccc(Cl)cc4)nc4ccccc4c3=O)cc2c1	broth dilution / visual reading		MIC99	100 µg/mL
CC[C@H](C)n1ncn(-c2ccc(N3CCN(c4ccc(OC[C@H]5CO[C@](Cn6cncn6)(c6ccc(F)cc6F)C5)cc4)CC3)cc2)c1=O		C-43	MIC	0.0625 µg/mL
CCOC(=O)c1csc(NC(=O)CSc2nnc(C(C)Oc3ccc(C)cc3)n2-c2ccccc2)n1		Clinical isolates	MIC	16 µg/mL
CCCCCCCCCn1cc[n+](COCCCCCCOC[n+]2ccn(CCCCCCCCC)c2)c1	agar diffusion	ATCC 90028	MIC100	8 µM
Cc1ccc(C2(c3ccc(C)cc3)C(=O)N(C(c3ccccc3)c3ccccc3)C2c2cccs2)cc1			MIC	100 µg/mL
C[C@@H](n1cnc2cc(NC(=O)C(F)(F)F)c(F)cc2c1=O)[C@](O)(Cn1cncn1)c1ccc(F)cc1F		60 strains	MIC	2.5 µg/mL
CNc1ccc2cc(S(=O)(=O)O)cc(O)c2c1	agar diffusion		MIC	300 µg/mL
C[C@@H](n1cnc2cc(Oc3ccc(Cl)cc3)ccc2c1=O)[C@](O)(Cn1cncn1)c1ccc(F)cc1F		60 strains	MIC	≤0.03 µg/mL
Cc1c(OCc2ccccc2)c(=O)ccn1CC1=NCCS1			MIC	100 µg/mL
C[C@@H](NC(=O)c1ccc(Cl)cc1N)[C@](O)(Cn1cncn1)c1ccc(F)cc1F		60 strains	MIC	0.07 µg/mL
OC(CCn1ccnc1)c1cccc(C(O)c2ccc(Cl)cc2)c1	broth dilution	RTCC 1003	MIC	>64 µg/mL
Cc1ccc(C2(c3ccc(C)cc3)C(=O)N(c3ccc([N+](=O)[O-])cc3)C2c2cccs2)cc1			MIC	100 µg/mL
C[C@@H](c1nc(-c2ccc(C#N)cc2)cs1)[C@](O)(Cn1cncn1)c1ccc(F)cc1F		76 strains	MIC	0.07 µg/mL
Cc1ccccc1CN(Cc1ccc(-c2ccccc2)cc1)n1ccnc1			MFC	200 µM
CCc1c(OCc2ccccc2)c(=O)ccn1CC1=NCCS1			MIC	75 µg/mL
Nn1c(-c2ccc(Cl)cc2)nc2ccccc2c1=O	agar	ATCC 2091	MIC	5.8 µg/mL
N=C(N)c1ccc(OC/C=C\COc2ccc(C(=N)N)cc2)cc1		B311	MIC	3.12 µg/mL
Cc1ccc2nc(Cl)c(C3SC(=Cc4cccc(O)c4)C(=O)N3n3c(-c4ccc(Cl)cc4)nc4ccccc4c3=O)cc2c1	broth dilution / visual reading		MIC99	100 µg/mL
C=C(Cl)CN1C[C@H](OCC23C[C@@H]4[C@H](C)CC[C@H]4C4(C=O)CC2C=C(C(C)C)C34C(=O)O)O[C@H](C)C1		20 isolates	MIC90	0.004 µg/mL
CCCCCCCCCCC[C@@H]1CC(=O)NCC(=O)N[C@@H](CCCCN)C(=O)N[C@@H](CC(C)(C)C)C(=O)N1		ATCC 24433	MIC	4 µg/mL
COc1ccc(C=C2SC(c3cc4cc(C)ccc4nc3Cl)N(n3c(-c4ccc(Cl)cc4)nc4ccccc4c3=O)C2=O)cc1	broth dilution / visual reading		MIC99	500 µg/mL
COc1ccc2cc3[n+](cc2c1OC)CCc1cc2c(cc1-3)OCO2			MIC50	293 µg/mL
C[C@H]1[C@H](O)[C@@H](C)/C=C/C=C/C=C/C=C/C=C/C=C/C=C/[C@H](O[C@@H]2O[C@H](C)[C@@H](O)[C@H](N)[C@@H]2O)C[C@@H]2O[C@](O)(C[C@@H](O)C[C@@H](O)CC[C@H](O)[C@@H](O)C[C@@H](O)CC(=O)O[C@H]1C)C[C@H](O)[C@H]2C(=O)O		3 strains	MIC	0.5 µg/mL
Cc1ccc(N2C(=O)C(c3ccc(C)cc3)(c3ccc(C)cc3)C2c2cccs2)cc1			MIC	100 µg/mL
Cc1ccc2nc(Cl)c(C3SC(=Cc4ccc([N+](=O)[O-])cc4)C(=O)N3n3c(-c4ccc(Cl)cc4)nc4ccccc4c3=O)cc2c1	broth dilution / visual reading		MIC99	100 µg/mL
CCCCCCCCCCCn1cc[n+](COCCCCCCOC[n+]2ccn(CCCCCCCCCCC)c2)c1	agar diffusion	ATCC 90028	MIC100	8 µM
CCCCCCCCCCC[C@@H]1CC(=O)NCC(=O)N[C@@H](CCCCN)C(=O)N[C@@H](CC(C)C)C(=O)N1		ATCC 24433	MIC	8 µg/mL
CCOC(=O)c1csc(NC(=O)CSc2nnc(C(C)Oc3ccccc3)n2C2CCCCC2)n1		NRRL Y-27077	MIC	16 µg/mL
O=S(=O)(O)c1cc(O)c2ccc(Nc3ccccc3)cc2c1	agar diffusion		MIC	10.28 µg/mL
O=c1ccn(CC2=NCCS2)cc1O			MIC	50 µg/mL
CCOc1ccc(N2C(=O)C(c3ccc(C)cc3)(c3ccc(C)cc3)C2c2cccs2)cc1			MIC	100 µg/mL
CC(Oc1ccccc1)c1n[nH]c(=S)n1C1CCCCC1		NRRL Y-27077	MIC	16 µg/mL
C[C@@H](SC1COC(/C=C/C=C/c2ccc(C#N)cc2F)OC1)[C@](O)(Cn1cncn1)c1ccc(F)cc1F		ATCC64550	MIC	0.25 µg/mL
Cc1c(O)c(=O)ccn1CC1=NCCS1			MIC	75 µg/mL
CCCCCCCCC[C@@H]1CC(=O)NCC(=O)N[C@@H](Cc2cnc[nH]2)C(=O)N[C@@H](C(C)C)C(=O)N1		ATCC 24433	MIC	>32 µg/mL
Oc1ccc2c(c1)CCc1ccc(O)c(c1)Oc1ccc(cc1)CCc1cccc(O)c1O2	broth dilution	CA10	MIC80	16 µg/mL
Cn1cc(C(=O)c2ccc([N+](=O)[O-])cc2)cc1/C=C/C(=O)NO			MIC	>15 µg/mL
Cc1ccc2nc(Cl)c(C3SC(=Cc4ccc(O)cc4)C(=O)N3n3c(-c4ccc(Cl)cc4)nc4ccccc4c3=O)cc2c1	broth dilution / visual reading		MIC99	500 µg/mL
C(=C/COc1ccc(C2=NCCN2)cc1)/COc1ccc(C2=NCCN2)cc1		B311	MIC	6.25 µg/mL
Cn1cc(C(=O)c2ccc(Cl)cc2)cc1/C=C/C(=O)NO			MIC	>15 µg/mL
Fc1ccc(CN(Cc2ccc(-c3ccccc3)cc2)n2ccnc2)c(F)c1			MFC	200 µM
Cn1cc(C(=O)c2ccccc2)cc1/C=C/C(=O)NO			MIC	>15 µg/mL
O=C(CCn1ccnc1)c1cccc2ccccc12	broth dilution	RTCC1024	MIC	>64 µg/mL

The last 8 rows once more:

structure	method	strain or isolate	read-out	result
Oc1ccc2c(c1)CCc1ccc(O)c(c1)Oc1ccc(cc1)CCc1cccc(O)c1O2	broth dilution	CA10	MIC80	16 µg/mL
Cn1cc(C(=O)c2ccc([N+](=O)[O-])cc2)cc1/C=C/C(=O)NO			MIC	>15 µg/mL
Cc1ccc2nc(Cl)c(C3SC(=Cc4ccc(O)cc4)C(=O)N3n3c(-c4ccc(Cl)cc4)nc4ccccc4c3=O)cc2c1	broth dilution / visual reading		MIC99	500 µg/mL
C(=C/COc1ccc(C2=NCCN2)cc1)/COc1ccc(C2=NCCN2)cc1		B311	MIC	6.25 µg/mL
Cn1cc(C(=O)c2ccc(Cl)cc2)cc1/C=C/C(=O)NO			MIC	>15 µg/mL
Fc1ccc(CN(Cc2ccc(-c3ccccc3)cc2)n2ccnc2)c(F)c1			MFC	200 µM
Cn1cc(C(=O)c2ccccc2)cc1/C=C/C(=O)NO			MIC	>15 µg/mL
O=C(CCn1ccnc1)c1cccc2ccccc12	broth dilution	RTCC1024	MIC	>64 µg/mL